Compound potency records, mixed from different reports. Data source: NIAID ChemDB in PubChem.

Common to all: whole-cell or culture tests; agent: Mycobacterium tuberculosis

Blank or dashed fields: not listed here. Neighbouring rows are from separate reports. Inhibition is in % at the dose shown (toxicity tests: loss of growth or viability). ECn: concentration that inhibits the pathogen or its effect by n%. Two numbers with a dash give a range or band. MIC bound comes from a single tested concentration. A number after MIC or MFC names an inhibition level or a share of isolates.

SMILES,method,mutations,strain,tested at,measure,result
Cc1nc2nc3n(c(=O)c2nc1C)CCS3,resazurin,,H37Rv,6.25 µg/mL,inhibition,23%
CCCCc1ccc(NC(=S)c2cccc(C)c2)cc1,,,My 331/88,,MIC,32 µM
O=C(Nc1cccc(F)c1)c1cc(F)ccc1O,,,CNCTC MY331/88,,MIC,31 µM
OC(c1cc(-c2ccccc2)nc2c1ccc1ccccc12)C1CCCCN1,resazurin,,H37Rv,,MIC bound,<6.25 µg/mL
COc1ccc(-c2nc3ccc(C)cc3[nH]2)cc1OC,radiometric,,H37Rv,,MIC,>500 µM
COc1ccc(-c2cc(=O)c3c(O)cc(O)c(-c4cc(-c5cc(=O)c6c(O)cc(OC)cc6o5)ccc4OC)c3o2)cc1,BACTEC,,H37Rv,,MIC bound,>12.8 µg/mL
CCCCOc1ccc(OCC)cc1NCc1cnc2nc(N)nc(N)c2c1C,,,H37Ra,,MIC,>64 µg/mL
NC1CCN(CCCCn2ccc(Nc3cc(COCCCNC4CC4)ccn3)nc2=O)CC1,turbidity,,H37Rv,,EC50,0.5–1 µM
COc1ccc(Cc2cc(N=O)c(OC)cc2O)cc1,BACTEC,,H37Rv,12.5 µg/mL,inhibition,25%
O=C(Nc1ccc(Cl)c(Cl)c1)c1cc([N+](=O)[O-])ccc1O,,,CNCTC MY331/88,,MIC,31 µM
COc1ccccc1Nc1nc(NNc2nc(-c3ccc(Cl)cc3)c(C#N)c(=O)n2C)nc(Nc2ccccc2OC)n1,,,H37Rv,,EC50,>12.5 µg/mL
Fc1ccc(-c2nc3ccccc3[nH]2)cc1,radiometric,,H37Rv,,MIC,>500 µM
CCOC(=O)c1ccc(-c2ccc[nH]2)nc1C,,,H37Rv,,MIC,25 µg/mL
O=C(Nc1ccccc1)c1ccccc1O,,,CNCTC MY331/88,,MIC,62 µM
O=C(NNC(=O)c1cccnc1)Nc1cccc(Cl)c1Cl,BACTEC,,H37Rv,12.5 µg/mL,inhibition,13%
CS/C(N)=N/NC(=O)c1ccc(Cl)cc1,,,H37Rv,,MIC,>100 µg/mL
Cc1cccc(NC(=S)Nc2ncc(C3CCC3)o2)n1,agar,,MDR clinical isolate,,MIC,2.7 µM
CCCCc1ccc(NC(=S)c2cccc(Cl)c2)cc1,,,My 331/88,,MIC,32 µM
CC1(C)CCc2nc(-c3ccc[nH]3)ccc2C1=O,,,H37Rv,,MIC,25 µg/mL
Cn1c(NNc2nc(Nc3ccccn3)nc(Nc3ccccn3)n2)nc(-c2ccccc2)c(C#N)c1=O,,,H37Rv,12.5 µg/mL,inhibition,0%
CCCCOc1ccc(OC)cc1NCc1cnc2nc(N)nc(N)c2c1C,,,H37Ra,,MIC,32 µg/mL
O=[N+]([O-])c1ccc(NC(=S)Nc2ncc(C3CCC3)o2)cc1,agar,,MDR clinical isolate,,MIC,0.62 µM
Cc1cc2oc(=O)c(C(=O)/C=C/c3ccc(O)cc3O)c(O)c2cc1C,agar,,H37Rv,,MIC90,>6.25 µg/mL
CC[C@H](C)[C@@H](NC(=O)[C@@H](CCC(=O)O)NC(=O)[C@H](Cc1cnc[nH]1)NC(=O)[C@H](CC(C)C)NC(=O)[C@H](N)Cc1ccccc1)C(=O)N[C@H]1CCCCNC1=O,,,,,MIC,12.5 µg/mL
O=C(O)c1ccc(N=NC2Sc3nc4ccccc4n3C2=O)cc1,BACTEC,,H37Rv,,MIC,≥12.5 µg/mL
CCCCc1ccc(NC(=S)c2ccccc2)cc1,,,My 331/88,,MIC,32 µM
CC1(C)CCc2nc(-c3ccccc3)ccc2C1=O,,,H37Rv,,MIC,>25 µg/mL
CC(=O)Nc1ccc(/C=N/NC(N)=S)cc1F,,,Erdman,,MIC,0.2 µg/mL
O=C(Nc1ccc(Cl)cc1Cl)c1cc(Br)ccc1O,,,CNCTC MY331/88,,MIC,4 µM
O=C(NNS(=O)(=O)c1ccccc1)c1cccnc1,BACTEC,,H37Rv,12.5 µg/mL,inhibition,0%
Clc1ccccc1-c1nc2ccccc2[nH]1,radiometric,,H37Rv,,MIC,>500 µM
CCN1C(C#N)=C(C#N)N=C(c2ccsc2)[C@H]1/C=C/c1ccccc1,broth dilution / visual reading,,H37Rv,,MIC,12.5 µg/mL
Cc1cc2oc(=O)c(C3=NNC(c4ccc(Cl)cc4Cl)C3)c(O)c2cc1C,agar,Isoniazid-resistant,INHR-MTB,,MIC90,>6.25 µg/mL
COc1cccc(Nc2nc(NNc3nc(-c4ccc(Cl)cc4)c(C#N)c(=O)n3C)nc(Nc3cccc(OC)c3)n2)c1,,,H37Rv,,EC50,>12.5 µg/mL
COc1ccc(C)cc1N=NC1C(=O)N(C(=O)CC(=O)Nc2ccccc2OC)N=C1c1ccccc1,BACTEC,,H37Rv,12.8 µg/mL,inhibition,5%
S=C(Nc1ccc(C2CCCCC2)cc1)c1cccc(Cl)c1,,,My 331/88,,MIC,16 µM
Fc1ccc(NC(=S)Nc2ncc(C3CCC3)o2)cc1,agar,,MDR clinical isolate,,MIC,0.68 µM
COC(=O)C1C(OC(C)=O)C(C)C(O)C(C)(O)/C=C(\C)C2=C3C(=C(C)C(=O)c4c(O)c(c(C)c(OC(C)=O)c43)NC(=O)/C(C)=C/C=C\[C@](C)(O)C(O)[C@@H](C)C1O)OCO2,,,CS-R,,MIC,<0.1 µg/mL
NCCCNCc1ccnc(Nc2ccn(CCCCN3CCC(N)CC3)c(=O)n2)c1,turbidity,,H37Rv,,EC50,0.5–1 µM
CCCOc1ccc(OCCC)c(NCc2cnc3nc(N)nc(N)c3c2C)c1,,,H37Ra,,MIC,8 µg/mL
COc1ccc2c(c1)nc(-c1ccc(OC)c(OC)c1)n2Cc1ccc(OC)c(OC)c1,radiometric,,H37Rv,,MIC,>500 µM
CCN(CC)CCCNc1cc(OC)cc2nc3ccccc3nc12.Cl.Cl,BACTEC,,H37Rv,12.5 µg/mL,inhibition,54%
NCCCNC(=O)c1ccnc(Nc2ccn(CCCCN3CCC(N)CC3)c(=O)n2)c1,turbidity,,H37Rv,,EC50,<0.5 µM
O=c1cccc(NC(=S)Nc2ncc(C3CCC3)o2)[nH]1,agar,,H37Rv,,MIC,10.78 µM
CCOc1ccc(OC)c(NCc2cnc3nc(N)nc(N)c3c2C)c1,,,H37Ra,,MIC,16 µg/mL
Cn1c(NNc2nc(NCc3ccccc3)nc(NCc3ccccc3)n2)nc(-c2ccccc2)c(C#N)c1=O,,,H37Rv,12.5 µg/mL,inhibition,82%
CCN1C(C#N)=C(C#N)N=C(c2cccs2)C1/C=C/c1ccc(-c2ccccc2)cc1,broth dilution / visual reading,,H37Rv,,MIC,12.5 µg/mL
CCOC(=O)c1ccc(-c2ccccc2)nc1C,,,H37Rv,,MIC,>25 µg/mL
NC1CCN(CCCCn2ccc(Nc3cc(C(=O)NC4CNC4)ccn3)nc2=O)CC1,turbidity,,H37Rv,,EC50,0.5–1 µM
CCCCOC(=O)c1c2nc3c(C(=O)OCCCC)ccc(C)c3oc-2c(C)c(=O)c1NC(C)=O,BACTEC,,H37Rv,12.5 µg/mL,inhibition,8%
NC1CCN(CCCCn2ccc(Nc3ccc(C4(O)CCNCC4)cn3)nc2=O)CC1,turbidity,,H37Rv,,EC50,≥1 µM
S=C(Nc1cc(Br)cc(Br)n1)Nc1ncc(C2CCC2)o1,agar,,MDR clinical isolate,,MIC,0.23 µM
CS/C(N)=N/NC(=O)c1ccc(C)cc1,,,H37Rv,,MIC,>100 µg/mL
Cc1cnc(NC(=S)Nc2ncc(C3CCC3)o2)cc1C,agar,,H37Rv,,MIC,0.62 µM
COc1cccc(C(=S)Nc2ccc(C(C)C)cc2)c1,,,My 331/88,,MIC,62.5 µM
Cc1ccc(-c2n[nH]c(=O)n2-n2c(C)ccc2C)cc1,,,H37Rv,,MIC,1.9 µg/mL
CC1(N)CCN(CCCCn2ccc(Nc3ccc(CNCCCN)cn3)nc2=O)CC1,turbidity,,H37Rv,,EC50,0.5–1 µM
COCCOc1ccc(OCCOC)c(NCc2cnc3nc(N)nc(N)c3c2C)c1,,,H37Ra,,MIC,32 µg/mL
CNCCCOCc1ccc(Nc2ccn(CCCCN3CCC(N)CC3)c(=O)n2)nc1,turbidity,,H37Rv,,EC50,≥1 µM
O=C(Nc1ccc(F)cc1)c1cc(Br)ccc1O,,,CNCTC MY331/88,,MIC,8 µM
CCN1C(C#N)=C(C#N)N=C(c2ccccc2)[C@@H]1/C=C/c1ccccc1,broth dilution / visual reading,,H37Rv,,MIC,12.5 µg/mL
CCc1nc2ccccc2[nH]1,radiometric,,H37Rv,,MIC,>500 µM
Cn1c(NNc2nc(Nc3ccccn3)nc(Nc3ccccn3)n2)nc(-c2ccc(Cl)cc2)c(C#N)c1=O,,,H37Rv,,EC50,>12.5 µg/mL
O=c1oc2ccccc2c(O)c1C1=NNC(c2ccc(Cl)cc2Cl)C1,agar,,H37Rv,,MIC90,>6.25 µg/mL
O=S1(c2ccccc2)=NC(=S)Nc2ccccc21,BACTEC,,H37Rv,12.5 µg/mL,inhibition,9%
NC(=O)c1cnccn1,broth dilution / visual reading,,H37Rv,,MIC,12.5 µg/mL
NNC(=O)c1ccncc1,,,MDR,,MIC,100 µg/mL
Cc1cc2oc(=O)c(C(=O)/C=C/c3ccc(C(F)(F)F)cc3)c(O)c2cc1C,agar,,H37Rv,,MIC90,>6.25 µg/mL
C/C(=N\NC(=O)Cn1nc(N2CCN(c3ccccc3)CC2)ccc1=O)c1ccccc1,agar,,H37Rv,,MIC,20 µg/mL
CCCCOc1ccc(OCCC)cc1NCc1cnc2nc(N)nc(N)c2c1C,,,H37Ra,,MIC,>64 µg/mL
CC(C)c1ccc(NC(=S)c2cccc(Cl)c2)cc1,,,My 331/88,,MIC,32 µM
C/C(=N\NC(=O)Cn1nc(N2CCN(c3ccc(F)cc3)CC2)ccc1=O)c1ccccc1,agar,,H37Rv,,MIC,20 µg/mL
Cc1ccccc1C1N=C2Oc3ccccc3C=C2C(=O)N1,BACTEC,,H37Rv,12.5 µg/mL,inhibition,-46%
CO[C@H]1/C=C/O[C@@]2(C)Oc3c(C)c(O)c4c(O)c(c(/C=N/N5CCN(C)CC5)c(O)c4c3C2=O)NC(=O)/C(C)=C\C=C\[C@H](C)[C@H](O)[C@@H](C)[C@@H](O)[C@@H](C)[C@H](OC(C)=O)[C@@H]1C,,,11 isolates (MDR),,MIC90,>32 µg/mL
CCOC(=O)c1c(Sc2ccc([N+](=O)[O-])cc2[N+](=O)[O-])nc2c3ccccc3ccn12,resazurin,,H37Rv,6.25 µg/mL,inhibition,-38%
Cn1c(NNc2nc(Nc3ccc(Cl)cc3)nc(Nc3ccc(Cl)cc3)n2)nc(-c2ccccc2)c(C#N)c1=O,,,H37Rv,,EC50,>12.5 µg/mL
C/C(=N\NC(=O)Cn1nc(N2CCN(c3ccccc3)CC2)ccc1=O)c1ccc(Cl)cc1,agar,,H37Rv,,MIC,40 µg/mL
C=CCCCCn1c2ccccc2c2c(C)c3c[n+](C)ccc3c(C)c21,resazurin,,H37Rv,,MIC bound,<6.25 µg/mL
Cc1ccc(Nc2nc(NNc3nc(-c4ccc(Cl)cc4)c(C#N)c(=O)n3C)nc(Nc3ccc(C)cc3C)n2)c(C)c1,,,H37Rv,,MIC,>12.5 µg/mL
C/C(=N\NC(=O)Cn1nc(N2CCN(c3ccc(Cl)cc3)CC2)ccc1=O)c1ccc(Cl)cc1,agar,,H37Rv,,MIC,40 µg/mL
CCOC(=O)c1ccc(-c2ccc(C)c3c2OC(C)C3)nc1C,,,H37Rv,,MIC,25 µg/mL
NC(=O)c1cnn(CCO)c1N,BACTEC,,H37Rv,,MIC bound,>12.5 µg/mL
C=CCS/C(N)=N/NC(=O)c1cc(OC)c(OC)c(OC)c1,,,H37Rv,,MIC,>100 µg/mL
Cc1cc(=O)n2[nH]cnc2n1,resazurin,,H37Rv,6.25 µg/mL,inhibition,35%
C=CCS/C(N)=N/NC(=O)c1ccc(Cl)cc1,,,H37Rv,,MIC,>100 µg/mL
NNC(=O)C1C2C=CC(C2)C1C(=O)NN,BACTEC,,H37Rv,,MIC bound,>12.5 µg/mL
NC(=O)c1cnccn1,,,CA516,,MIC,512 µg/mL
CNC(=S)N/N=C/c1cnccn1,BACTEC,,H37Rv,12.5 µg/mL,inhibition,12%
O=C(Nc1cccc([N+](=O)[O-])c1)c1cc([N+](=O)[O-])ccc1O,,,CNCTC MY331/88,,MIC,31 µM
C=C[C@H]1CN2CC[C@H]1C[C@@H]2[C@@H](O)c1ccnc2ccc(OC)cc12,BACTEC,,H37Rv,,MIC,≥128 µg/mL
CO[C@H]1[C@@H](O)[C@H](n2ccc(=O)[nH]c2=O)O[C@@H]1[C@@H](O[C@H]1OC(C(=O)Nc2ccc(F)c(F)c2)=C[C@H](O)[C@@H]1O)C(N)=O,,,11 isolates (MDR),,MIC90,32 µg/mL

A second listing of 7 rows from above:

{"SMILES": "COc1ccc(-c2cc(=O)c3c(O)cc(O)c(-c4cc(-c5cc(=O)c6c(O)cc(OC)cc6o5)ccc4OC)c3o2)cc1", "method": "BACTEC", "strain": "H37Rv", "measure": "MIC bound", "result": ">12.8 µg/mL"}
{"SMILES": "COc1ccc2c(c1)nc(-c1ccc(OC)c(OC)c1)n2Cc1ccc(OC)c(OC)c1", "method": "radiometric", "strain": "H37Rv", "measure": "MIC", "result": ">500 µM"}
{"SMILES": "O=C(Nc1ccc(Cl)cc1Cl)c1cc(Br)ccc1O", "strain": "CNCTC MY331/88", "measure": "MIC", "result": "4 µM"}
{"SMILES": "NC1CCN(CCCCn2ccc(Nc3cc(C(=O)NC4CNC4)ccn3)nc2=O)CC1", "method": "turbidity", "strain": "H37Rv", "measure": "EC50", "result": "0.5–1 µM"}
{"SMILES": "Fc1ccc(NC(=S)Nc2ncc(C3CCC3)o2)cc1", "method": "agar", "strain": "MDR clinical isolate", "measure": "MIC", "result": "0.68 µM"}
{"SMILES": "S=C(Nc1ccc(C2CCCCC2)cc1)c1cccc(Cl)c1", "strain": "My 331/88", "measure": "MIC", "result": "16 µM"}
{"SMILES": "COc1ccc(C)cc1N=NC1C(=O)N(C(=O)CC(=O)Nc2ccccc2OC)N=C1c1ccccc1", "method": "BACTEC", "strain": "H37Rv", "tested at": "12.8 µg/mL", "measure": "inhibition", "result": "5%"}